Key:
SARS‐CoV‐2 PL^pro = SARS‐CoV‐2 PL^pro (Severe acute respiratory syndrome coronavirus 2, UniProt P0DTD1); assay type: biochemical
SARS‐CoV PL^pro = SARS‐CoV PL^pro (Severe acute respiratory syndrome coronavirus, UniProt P0C6X7); assay type: biochemical
[1] = target: interaction of the RBD of the SARS‐CoV‐2 S protein with the ACE2 receptor (Severe acute respiratory syndrome coronavirus 2, UniProt P0DTC2); assay type: binding; conditions: read-out: IC50 as inhibitors of the S/ACE2 interaction

| Molecule | IC50 (SARS‐CoV‐2 PL^pro) | IC50 (SARS‐CoV PL^pro) | IC50 SARS‐CoV PL^pro (SARS‐CoV PL^pro) | IC50 [1] |
| --- | --- | --- | --- | --- |
| [Pd16Na2O26 (OH)3Cl3((CH3)2As)8] ⋅ 0.25Na(CH3)2AsO2 ⋅ 17H2O [POM‐11] | 130 ± 40 nM | 710 ± 200 nM | submicromolar concentration range | 2500 ± 300 nM |
| CCn1[c]([Au-][S]C(=S)N2CCC(C(=O)NC3C(O)OC(CO)C(O)C3O)CC2)[n+](CC)c2ccccc21 (mixture of isomers) [Au‐35] | – | 710 ± 50 nM | – | – |
| Rb5.5Na4.5[{(p‐tolyl)Sb}4(PW9O34)2] ⋅ 40H2O [POM‐6] | 200 ± 30 nM | 9100 ± 1600 nM | – | 200 ± 100 nM |
| Rb6Na6[{(p‐tolyl)Sb}4(GeW9 O34)2] ⋅ 40H2O [POM‐7] | 460 ± 190 nM | 2400 ± 1600 nM | – | 300 ± 100 nM |
| Na6[TeW6O24] ⋅ 22H2O [POM‐5] | – | 19300 ± 4600 nM | – | – |
| Na12[PbO8Pd12 (PO4)8] ⋅ 38H2O [POM‐1] | 170 ± 110 nM | 950 ± 60 nM | submicromolar concentration range | – |
| Na12[SnO8Pd12(PO4)8] ⋅ 43H2O [POM‐2] | 540 ± 80 nM | 820 ± 170 nM | submicromolar concentration range | – |
